{"source": "PubChem BioAssay AID624099 | ICCB-Longwood | 2012", "aim": "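Human genes that papillomavirus E2 requires to repress the HPV18 LCR promoter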 (primary screen)", "system": "human C33A cervical carcinoma cells (HPV-negative) stably expressing BPV1 E2 and an HPV18 LCR luciferase reporter", "reagents": "siRNA pool against human genes, 40 nM", "duration": "72 h", "read-out": "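Per-well luciferase luminescence, z-scored on each plate against the plate mean and SD with control wells left out, then averaged across three replicate plates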", "direction": "mean z-score and z-score: higher = stronger reporter signal, weaker E2 silencing", "rule for the call": "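Mean z ≥ 2 together with z ≥ 2 in two or more of the three replicates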", "note": "Shown is an unselected part of about 21,000 deposited reagents. 497 of them (2.4%) count as active. 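Higher z means weaker E2 silencing; only reporter increases were scored, and knock-downs that hurt cell survival may mask genuine repressor factors.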"}
{"gene":"PTPRCAP (GeneID 5790)","PubChem SID":"SID134316427","mean z-score":-0.82,"z-score, replicate A":-0.77,"z-score, replicate B":-0.83,"z-score, replicate C":-0.85,"outcome":"inactive"}
{"gene":"SLC25A43 (GeneID 203427)","PubChem SID":"SID134312397","mean z-score":0.07,"z-score, replicate A":0.09,"z-score, replicate B":0.08,"z-score, replicate C":0.04,"outcome":"inactive"}
{"gene":"SKA1 (GeneID 220134)","PubChem SID":"SID134319933","mean z-score":-0.56,"z-score, replicate A":-0.68,"z-score, replicate B":-0.23,"z-score, replicate C":-0.77,"outcome":"inactive"}
{"gene":"RPL5 (GeneID 6125)","PubChem SID":"SID134317829","mean z-score":-2.89,"z-score, replicate A":-3,"z-score, replicate B":-2.8,"z-score, replicate C":-2.87,"outcome":"inactive"}
{"gene":"CIC (GeneID 23152)","PubChem SID":"SID134319236","mean z-score":0.96,"z-score, replicate A":0.94,"z-score, replicate B":0.79,"z-score, replicate C":1.13,"outcome":"inactive"}
{"gene":"LOC387910 (retired record) (GeneID 387910)","PubChem SID":"SID134328433","mean z-score":-0.27,"z-score, replicate A":-0.55,"z-score, replicate B":-0.08,"z-score, replicate C":-0.17,"outcome":"inactive"}
{"gene":"GCSAM (GeneID 257144)","PubChem SID":"SID134323088","mean z-score":0.07,"z-score, replicate A":0.17,"z-score, replicate B":0.15,"z-score, replicate C":-0.12,"outcome":"inactive"}
{"gene":"FSCB (GeneID 84075)","PubChem SID":"SID134322448","mean z-score":2.6,"z-score, replicate A":2.19,"z-score, replicate B":2.49,"z-score, replicate C":3.12,"outcome":"active"}
{"gene":"OVCA2 (GeneID 124641)","PubChem SID":"SID134319320","mean z-score":-0.49,"z-score, replicate A":-0.74,"z-score, replicate B":-0.35,"z-score, replicate C":-0.39,"outcome":"inactive"}
{"gene":"IL2RA (GeneID 3559)","PubChem SID":"SID134312917","mean z-score":10.4,"z-score, replicate A":10,"z-score, replicate B":10.6,"z-score, replicate C":10.6,"outcome":"active"}
{"gene":"TNFSF11 (GeneID 8600)","PubChem SID":"SID134315833","mean z-score":-0.61,"z-score, replicate A":-0.66,"z-score, replicate B":-0.64,"z-score, replicate C":-0.53,"outcome":"inactive"}
{"gene":"SPATA32 (GeneID 124783)","PubChem SID":"SID134319857","mean z-score":-1.33,"z-score, replicate A":-1.68,"z-score, replicate B":-1.21,"z-score, replicate C":-1.1,"outcome":"inactive"}
{"gene":"CYBA (GeneID 1535)","PubChem SID":"SID134315384","mean z-score":0.23,"z-score, replicate A":-0.17,"z-score, replicate B":0.67,"z-score, replicate C":0.18,"outcome":"inactive"}
{"gene":"CHRNA5 (GeneID 1138)","PubChem SID":"SID134311558","mean z-score":-0.92,"z-score, replicate A":-0.98,"z-score, replicate B":-1.06,"z-score, replicate C":-0.73,"outcome":"inactive"}
{"gene":"PPM1N (GeneID 147699)","PubChem SID":"SID134313844","mean z-score":0.57,"z-score, replicate A":-0.08,"z-score, replicate B":0.86,"z-score, replicate C":0.92,"outcome":"inactive"}
{"gene":"GPR27 (GeneID 2850)","PubChem SID":"SID134311004","mean z-score":-1.49,"z-score, replicate A":-1.33,"z-score, replicate B":-1.4,"z-score, replicate C":-1.75,"outcome":"inactive"}
{"gene":"TCAF1 (GeneID 9747)","PubChem SID":"SID134324194","mean z-score":-0.42,"z-score, replicate A":-0.38,"z-score, replicate B":-0.53,"z-score, replicate C":-0.36,"outcome":"inactive"}
{"gene":"SUPT6H (GeneID 6830)","PubChem SID":"SID134315040","mean z-score":-2.21,"z-score, replicate A":-2.26,"z-score, replicate B":-2.1,"z-score, replicate C":-2.27,"outcome":"inactive"}
{"gene":"LY86 (GeneID 9450)","PubChem SID":"SID134323627","mean z-score":-0.43,"z-score, replicate A":-0.43,"z-score, replicate B":-0.28,"z-score, replicate C":-0.57,"outcome":"inactive"}
{"gene":"CASP5 (GeneID 838)","PubChem SID":"SID134310442","mean z-score":0.46,"z-score, replicate A":0.83,"z-score, replicate B":0.18,"z-score, replicate C":0.36,"outcome":"inactive"}
{"gene":"PDPN (GeneID 10630)","PubChem SID":"SID134321491","mean z-score":-0.09,"z-score, replicate A":0.04,"z-score, replicate B":-0.08,"z-score, replicate C":-0.24,"outcome":"inactive"}
